Pooled drug test results. Numbers come from NIAID ChemDB, via PubChem.

Common to all: growth or infection tests; species: Mycobacterium tuberculosis

Neighbouring rows are from separate reports. An empty or dashed field is not shown. Two numbers with a dash give a range or band. MIC50, MIC90 and the like: level of inhibition, or share of isolates inhibited. ECn: concentration that inhibits the pathogen or its effect by n%. MIC bound comes from a single tested concentration. Fold resistance: result on the changed form divided by that on wild type. Inhibition is in % at the dose shown (toxicity tests: loss of growth or viability).

SMILES,cells,strain or isolate,mutations,read-out,method,dose,result
Cc1c(C(=O)NCc2ccccc2)[n+](=O)c2cc(Cl)c(Cl)cc2n1[O-],VERO,H37Rv,,EC90,resazurin,,<0.2 µg/mL
COc1ccc(CCNC(=O)c2ccc(CSc3ccc(Cl)cc3)o2)cc1OC,,H37Rv,,inhibition,BACTEC,12.5 µg/mL,20%
Cc1nc2c(-c3ccccc3)c3cc(Cl)ccc3nc2o1,,H37Rv,,EC50,,,>6.25 µg/mL
FC(F)(F)c1ccc(Oc2ccc(Nc3ncnc4[nH]ncc34)cc2)cc1,,H37Rv,,MIC50,luminescence,,>10 µM
Cc1cccc2c1N=C(c1ccccc1)C2CN1CCC(NS(C)(=O)=O)C1,,,,MIC,,,3.3–6.2 µM
Nc1c(-c2ccccc2)c2cc(Cl)ccc2[nH]c1=O,,H37Rv,,EC50,,,>6.25 µg/mL
CCc1ccccc1NC(=O)c1c(C)n([O-])c2ccc(F)cc2[n+]1=O,VERO,H37Rv,,EC90,resazurin,,0.504 µg/mL
CC(=O)Nc1c(OC(C)=O)nc2ccc(Cl)cc2c1-c1ccccc1,,H37Rv,,EC50,,,>6.25 µg/mL
CC(CC#N)NC(=O)C1CCC(N)=N1.Cl,,H37Rv,,MIC,BACTEC,,≥12.5 µg/mL
O=C(CCC(F)(F)F)N1CCC(c2ccc(C(F)(F)F)nc2)CC1,THP-1,H37Rv,,EC50,fluorescence,,1–10 µM
FS(F)(F)(F)(F)c1ccc(CCNc2ncnc3ccsc23)cc1,,H37Rv,,MIC50,luminescence,,>50 µM
C[C@H]1COC2(CCN(c3nc(=O)c4cc(C(F)(F)F)cc([N+](=O)[O-])c4s3)CC2)O1,,DprE1 OE,,MIC,,,12.5–50 µM
Cc1ccc(C(=O)Nn2c(C)nc3scc(-c4ccco4)c3c2=O)cc1,,CNCTC MY331/88,,MIC,,,41 µM
CC1COc2c(N3CCN(C)CC3)c(F)cc3c(=O)c(C(=O)O)cn1c23,,10 strains,,MIC90,,,2 µg/mL
COc1c(N2CCNC(C)C2)c(F)cc2c(=O)c(C(=O)O)cn(C3CC3)c12,,27 strains (levofloxacin-susceptible),,MIC50,,,0.1 µg/mL
CC(=O)NC[C@H]1CN(c2ccc(N3CCN(c4ccc([N+](=O)[O-])s4)CC3)c(F)c2)C(=O)O1,,B-125,,MIC,,,≤0.125 µg/mL
Cc1nc2scc(-c3ccco3)c2c(=O)n1NC(=O)c1cccs1,,CNCTC MY331/88,,MIC,,,46 µM
FC(F)(F)c1cccc(Oc2ccc(Nc3ncnc4ccsc34)cc2)c1,,H37Rv,,MIC50,luminescence,,>50 µM
C[n+]1c(-c2ccc(/C=N/NC(=O)c3cccc(C(=O)N/N=C/c4ccc(-c5cn6ccccc6[n+]5C)cc4)c3)cc2)cn2ccccc21.Cc1ccc(S(=O)(=O)[O-])cc1.Cc1ccc(S(=O)(=O)[O-])cc1,,H37Rv,,inhibition,BACTEC,12.5 µg/mL,36%
COC1CN(Cc2ccncc2)CCC1NS(=O)(=O)c1ccc(-n2cccn2)cc1,,,,MIC,,,25 µM
O=c1[nH]c(=O)n([C@H]2C[C@H](I)[C@@H](CO)O2)cc1F,,H37Ra,,inhibition,,32 µg/mL,100%
Cc1c(N)c(=O)[nH]c2ccccc12,,H37Rv,,inhibition,,6.25 µg/mL,0%
Cc1nc2scc(-c3ccco3)c2c(=O)n1/N=C/c1ccc([N+](=O)[O-])cc1,,CNCTC MY331/88,,MIC,,,6 µM
Fc1ccc2c(NCc3ccc(Oc4cccc(C(F)(F)F)c4)cc3)ncnc2c1,,H37Rv,,MIC50,luminescence,,>20 µM
CCCCc1nc(Cl)c(C2C(C(=O)Nc3ccccc3F)=C(C)NC(C)=C2C(=O)Nc2ccccc2F)[nH]1,,H37Rv,,inhibition,resazurin,6.25 µg/mL,95%
C[C@H]1COc2c(N3CCN(C)CC3)c(F)cc3c(=O)c(C(=O)O)cn1c23,,27 strains (levofloxacin-susceptible),,MIC90,,,0.78 µg/mL
COCCN(C1CCN(CC2C(c3ccccc3)=Nc3ccccc32)C1)S(C)(=O)=O,,,,MIC,,,6.25 µM
Cc1nc2scc(-c3ccco3)c2c(=O)n1/N=C/c1ccc(Cl)cc1,,CNCTC MY331/88,,MIC,,,9 µM
FC(F)(F)c1ccc(CNc2ncnc3ccsc23)cc1,,H37Rv,,MIC50,luminescence,,>50 µM
C[C@H]1COc2c(N3CCN(C)CC3)c(F)cc3c(=O)c(C(=O)O)cn1c23,,10 strains,,MIC50,,,0.5 µg/mL
O=C(CCC(F)(F)F)N1CCC(F)(c2ccccn2)CC1,THP-1,H37Rv,,EC50,fluorescence,,<0.05 µM
Cc1cc2c(C)c3cc(C)c(N)cc3nc2cc1N,,H37Rv,,MIC,BACTEC,,3.13 µg/mL
FC(F)(F)Oc1ccc(Nc2ncnc3ccccc23)cc1,,H37Rv,,MIC50,luminescence,,>50 µM
C[n+]1c([O-])c(C(=O)CCl)n2ccccc21,,H37Rv,,MIC bound,resazurin,,>6.25 µg/mL
O=C(CCC(F)(F)F)N1CCC(c2ncc(F)cc2F)CC1,THP-1,H37Rv,,EC50,fluorescence,,0.05–0.25 µM
CC(C)(C)OC(=O)c1cnc(Cl)cn1,,ATCC 35828,,MIC,,,4 µg/mL
CC(=O)Nc1c(-c2ccccc2)c2cc(Cl)ccc2n(C)c1=O,,H37Rv,,EC50,,,>6.25 µg/mL
O=C(CCC(F)(F)F)N1CCC(c2cccc(F)n2)CC1,THP-1,H37Rv,,EC50,fluorescence,,0.05–0.25 µM
COC(=O)[C@@H](NC(=O)[C@H](CO)N1C(=O)c2ccccc2C1=O)c1ccccc1,,H37Rv,,MIC bound,resazurin,,>6.25 µg/mL
Fc1ccc2c(NCCc3ccc(OC(F)(F)F)cc3)ncnc2c1,,H37Rv,,MIC50,luminescence,,>20 µM
Cc1nc2scc(-c3ccco3)c2c(=O)n1NC(=O)c1ccc(Cl)cc1Cl,,CNCTC MY331/88,,MIC,,,16 µM
CCOc1ccc2c(c1)n([O-])c1cc(Br)ccc1[n+]2=O,,PZA-R,,MIC,,,1.6 µg/mL
Cc1nc2scc(-c3ccco3)c2c(=O)n1NC(=O)C1CCCCC1,,CNCTC MY331/88,,MIC,,,105 µM
FC(F)(F)Oc1ccc(CCNc2ncnc3ccsc23)cc1,,H37Rv,,MIC50,luminescence,,>50 µM
CCN(CC)C(=S)Sc1nc2ccccc2s1,,H37Rv,,MIC,BACTEC,,32 µg/mL
CC(C)COC(=O)c1cnccn1,,ATCC 35828,,MIC,,,4 µg/mL
COc1cc2c(cc1OC)[C@@H](Cc1ccc(Oc3cc(C[C@@H]4c5cc(OC)c(OC)cc5CCN4C)ccc3O)cc1)N(C)CC2,,H37Rv,,inhibition,BACTEC,128 µg/mL,62%
FC(F)(F)c1ccc(Oc2ccc(Nc3ncnc4cc(C(F)(F)F)ccc34)cc2)cc1,,H37Rv,,MIC50,luminescence,,>20 µM
O=C(CCC(F)(F)F)N1CCC(c2cncc(Cl)c2)C1,THP-1,H37Rv,,EC50,fluorescence,,1–10 µM
Cc1nc2scc(-c3ccco3)c2c(=O)n1/N=C/c1ccc(F)cc1,,CNCTC MY331/88,,MIC,,,10 µM
CC(C)Oc1ccc(-c2ccc(Nc3ncnc4cc(F)ccc34)cc2)cc1,,H37Rv,,MIC50,luminescence,,>10 µM
c1cc2c(s1)CCOC21CCN(Cc2ccc3c(c2)OCCO3)CC1,,H37Rv,MmpL3: Ala249Pro,fold resistance,fluorescence,,1.1
CCCCc1nc(Cl)c(C2C(C(=O)Nc3cccc([N+](=O)[O-])c3)=C(C)NC(C)=C2C(=O)Nc2cccc([N+](=O)[O-])c2)[nH]1,,H37Rv,,inhibition,resazurin,6.25 µg/mL,85%
Fc1ccc(N2CCN(c3ccc(Nc4ncnc5cc(F)ccc45)cc3)CC2)cc1,,H37Rv,,MIC50,luminescence,,>10 µM
CC1OC(n2ccc(NC(=O)c3ccc(NC(=O)C(C)(N)CO)cc3)nc2=O)CCC1OC1OC(C)C(N(C)C)C(O)C1O,VERO,H37Rv,,MIC,,,1.6 µg/mL
COc1ccc(C(=O)Nn2c(C)nc3scc(-c4ccco4)c3c2=O)cc1,,CNCTC MY331/88,,MIC,,,9 µM
COC(=O)C(=O)C(C(=O)C1=NS(=O)(O)=c2cc(S(N)(=O)=O)c(Cl)cc2=N1)c1nc2ccc(C(=O)c3ccccc3)cc2[nH]c1=O,,H37Rv,,MIC bound,BACTEC,,>12.5 µg/mL
Fc1ccc2c(Nc3ccc(N4CCOCC4)c(F)c3)ncnc2c1,,H37Rv,,MIC50,luminescence,,>50 µM
CCc1ccccc1NC(=O)c1c(C)n([O-])c2cc(F)c(F)cc2[n+]1=O,VERO,H37Rv,,EC90,resazurin,,0.517 µg/mL
O=c1c2ccccc2c(=O)c2c1ccc1[nH]c3ccccc3n(-c3ccccc3)c12,,H37Rv,,MIC bound,BACTEC,,>12.5 µg/mL
O=c1ccn([C@@H]2O[C@H](CO)[C@@H](Br)[C@@H]2O)c(=O)[nH]1,,H37Ra,,inhibition,,24 µg/mL,100%
Cc1occc1C(=S)Nc1ccc(Cl)c(COC(C)(C)C)c1,,H37Rv,,MIC,resazurin,,12.5 µg/mL
CCn1cc(C(=O)O)c(=O)c2cc(F)c(N3CCNC(C)C3)c(F)c21,,,,MBC,,,2 µg/mL
FC(F)(F)c1ccc(N2CCCN(c3ccc(Nc4ncnc5ccccc45)cc3)CC2)cc1,,H37Rv,,MIC50,luminescence,,>50 µM
Cc1c(N2C[C@@H](N)C3(CC3)C2)c(F)c(N)c2c(=O)c(C(=O)O)cn(C3CC3)c12,,22 strains (rifampin- isoniazid-resistant),,MIC90,,,25 µg/mL
CCCCc1nc(Cl)c(C2C(C(=O)Nc3ccc([N+](=O)[O-])cc3)=C(C)NC(C)=C2C(=O)Nc2ccc([N+](=O)[O-])cc2)[nH]1,,H37Rv,,inhibition,resazurin,6.25 µg/mL,99%
Cc1cn(CCOCCOC(=O)N[C@@H](CCCN=C(N)N)C(=O)O)c(=O)[nH]c1=O,,H37Rv,,inhibition,resazurin,6.25 µg/mL,5%
CCCCCC(CC)OC(=O)c1cnc(Cl)cn1,,ATCC35801,,MIC,,,0.25 µg/mL
COc1cc2cc(c1Cl)N(C)C(=O)CC(OC(=O)C(C)C)[C@]1(C)O[C@@H]1[C@@H](C)[C@H]1C[C@](O)(NC(=O)O1)[C@@H](OC)/C=C/C=C(\C)C2,,H37Rv,,MIC bound,BACTEC,,>12.5 µg/mL
Fc1ccc2c(Nc3ccc(Oc4ccccc4)cc3)ncnc2c1,,H37Rv,,MIC50,luminescence,,>20 µM
CCc1ccccc1NC(=O)c1c(C)n([O-])c2ccc(C(F)(F)F)cc2[n+]1=O,VERO,H37Rv,,EC90,resazurin,,1.153 µg/mL
COc1ccc(OC)c(Cc2cnc3nc(N)nc(N)c3c2C)c1,,H37Rv,,inhibition,resazurin,6.25 µg/mL,100%
FC(F)(F)Oc1ccc(CCNc2ncnc3cc(Br)ccc23)cc1,,H37Rv,,MIC50,luminescence,,>20 µM
CCc1nc2ccc(Cl)cn2c1C(=O)NCc1ccc(N2CCC(c3ccc(OC(F)(F)F)cc3)CC2)cc1,,N0155,,MIC50,turbidity,,0.0026 µM
O=C1CSC(=S)N1[C@@H]1O[C@H](CO)[C@@H](O)[C@H]1O,,H37Rv,,MIC bound,BACTEC,,>12.5 µg/mL
CC(=O)Nc1nc(Cc2nnc(SCC#N)n2NC(=O)c2cccc([N+](=O)[O-])c2)cs1,,H37Rv,,inhibition,,6.25 µg/mL,100%
CCCCOC(=O)c1cc(=O)[nH]c(=O)[nH]1,,H37Rv,,MIC bound,BACTEC,,>12.5 µg/mL
CCCCc1nc(Cl)c(C2C(C(=O)Nc3ccccc3C)=C(C)NC(C)=C2C(=O)Nc2ccccc2C)[nH]1,,H37Rv,,inhibition,resazurin,6.25 µg/mL,46%
CCCCCCCC/C=C/CCCCCC1CCCC(C)N1,,H37Rv,,MIC bound,BACTEC,,≤12.5 µg/mL
Cc1cccc2c(CN3CC[C@@H](NS(C)(=O)=O)C3)c(-c3ccccc3)[nH]c12,,,,MIC,,,3.1 µM
Cc1nc(C(N)=O)c(C(N)=O)nc1C,,H37Rv,,MIC,BACTEC,,≥12.5 µg/mL
CC(=O)Nc1c(OC(C)=O)nc2ccc([N+](=O)[O-])cc2c1-c1ccccc1,,H37Rv,,inhibition,,6.25 µg/mL,0%

Again, the opening 12 rows:

SMILES | cells | strain or isolate | mutations | read-out | method | dose | result
Cc1c(C(=O)NCc2ccccc2)[n+](=O)c2cc(Cl)c(Cl)cc2n1[O-] | VERO | H37Rv |  | EC90 | resazurin |  | <0.2 µg/mL
COc1ccc(CCNC(=O)c2ccc(CSc3ccc(Cl)cc3)o2)cc1OC |  | H37Rv |  | inhibition | BACTEC | 12.5 µg/mL | 20%
Cc1nc2c(-c3ccccc3)c3cc(Cl)ccc3nc2o1 |  | H37Rv |  | EC50 |  |  | >6.25 µg/mL
FC(F)(F)c1ccc(Oc2ccc(Nc3ncnc4[nH]ncc34)cc2)cc1 |  | H37Rv |  | MIC50 | luminescence |  | >10 µM
Cc1cccc2c1N=C(c1ccccc1)C2CN1CCC(NS(C)(=O)=O)C1 |  |  |  | MIC |  |  | 3.3–6.2 µM
Nc1c(-c2ccccc2)c2cc(Cl)ccc2[nH]c1=O |  | H37Rv |  | EC50 |  |  | >6.25 µg/mL
CCc1ccccc1NC(=O)c1c(C)n([O-])c2ccc(F)cc2[n+]1=O | VERO | H37Rv |  | EC90 | resazurin |  | 0.504 µg/mL
CC(=O)Nc1c(OC(C)=O)nc2ccc(Cl)cc2c1-c1ccccc1 |  | H37Rv |  | EC50 |  |  | >6.25 µg/mL
CC(CC#N)NC(=O)C1CCC(N)=N1.Cl |  | H37Rv |  | MIC | BACTEC |  | ≥12.5 µg/mL
O=C(CCC(F)(F)F)N1CCC(c2ccc(C(F)(F)F)nc2)CC1 | THP-1 | H37Rv |  | EC50 | fluorescence |  | 1–10 µM
FS(F)(F)(F)(F)c1ccc(CCNc2ncnc3ccsc23)cc1 |  | H37Rv |  | MIC50 | luminescence |  | >50 µM
C[C@H]1COC2(CCN(c3nc(=O)c4cc(C(F)(F)F)cc([N+](=O)[O-])c4s3)CC2)O1 |  | DprE1 OE |  | MIC |  |  | 12.5–50 µM